Pooled drug test results. Numbers come from NIAID ChemDB, via PubChem.

All rows: growth or infection tests; organism: Mycobacterium tuberculosis

Conditions beyond the fields shown may differ between rows.

SMILES,dose,measure,read by,conditions,strain,result
COC(=O)C1C(=O)C2OC1C1OC(C)(C)OC21,12.5 µg/mL,inhibition,BACTEC,-,H37Rv,-13%
O=C(/C=C/C(=O)N1C/C(=C\c2ccccc2)C(=O)/C(=C/c2ccccc2)C1)Nc1ccccc1,-,EC50,-,-,H37Rv,>6.25 µg/mL
CC(NCCN[C@@H]1C[C@@H]2C[C@H]([C@H]1C)C2(C)C)c1cccc2ccccc12,-,MIC,-,-,-,50 µM
COc1cc2c(cc1OC)CN(c1cc3c(cc1F)c(=O)c(C(=O)O)c1n3CS1)CC2,-,MIC,agar,-,H37Rv,3.53 µM
S=C(Nc1ccccc1)N(Cc1ccco1)c1ccc(Cl)c(Cl)c1,1000 µg/mL,zone,visual reading,-,-,18.88 mm
[C-]#[N+][C@@H]1[C@H](C(C)C)CC[C@@H](C)C12C=C(C)CC2,-,MIC,-,-,H37Rv,2 µg/mL
O=[N+]([O-])c1ccc(N=NNc2ccc([N+](=O)[O-])cc2Br)c(Br)c1,-,EC90,luminescence,-,H37Ra-lux,4.95 µM
CC(C)[C@H]1CO[C@]23CC[C@@H](N(CCCCF)Cc4ccc(C(F)(F)F)cc4)C[C@H]2CCC(=O)N13,-,MIC,resazurin,-,-,0.5–5 µM
S=C(NCCNC(=S)[S][Sn]([c]1ccccc1)([c]1ccccc1)[c]1ccccc1)[S][Sn]([c]1ccccc1)([c]1ccccc1)[c]1ccccc1,-,MIC,-,-,RMP-R,0.4 µg/mL
O=C1/C(=C\c2ccccc2)CN(C(=O)c2ccc(/C=C/C(=O)c3ccccc3)cc2)C/C1=C/c1ccccc1,6.25 µg/mL,inhibition,-,-,H37Rv,8%
CC1(C)[C@H]2CC[C@@H](CNCCNC34CC5CC(CC(C5)C3)C4)[C@@H]1C2,-,MIC,-,-,-,12.5 µM
COc1cccc2c1[n+]([O-])c1cccc(O)c1[n+]2[O-],-,MIC,-,-,ETA-R,1.6 µg/mL
CCCCC(CC)CNC[C@H]1O[C@H](O[C@H]2O[C@H](CO)[C@@H](O)[C@H](O)[C@H]2O)[C@H](O)[C@@H](O)[C@@H]1O,-,MIC,-,-,H37Ra,>128 µg/mL
CC1=C2CC[C@]3(C)O[C@H]3CC/C(C)=C/CC/C(C)=C/[C@H]2OC1,-,MIC,-,-,H37Rv,64 µg/mL
CC[C@@H](O)C[C@@H]1O[C@@]2(CC[C@@H]1C)C[C@@H]1OC(=O)/C=C/[C@@](C)(O)[C@@H](O)[C@@H](C)[C@@H](O)[C@H](OC3CC(OC)C(O)C(C)O3)[C@@H](O)[C@](C)(O)CCC/C=C/[C@@H]3C[C@H](C)CO[C@@]3(O)C[C@H](O2)[C@H]1C,12.5 µg/mL,inhibition,BACTEC,-,H37Rv,29%
Cc1c(OCC(F)(F)F)ccnc1CSc1nc2ccccc2[nH]1,-,MIC90,resazurin,clinical isolate,-,0.78 µM
COC(=O)C(=O)C(C(=O)C(c1ccccc1)c1ccccc1)c1nc2n(c1O)/C(=N/C(=O)Nc1ccc(Cl)cc1)N=N2,-,MIC bound,resazurin,-,H37Rv,>6.25 µg/mL
CNC(=S)N(c1ccc(F)c(Cl)c1)C1CCCCC1,1000 µg/mL,zone,visual reading,-,-,11.08 mm
Cc1c(C(=O)N2CCN(c3ccccc3)CC2)[n+](=O)c2cc(Cl)c(Cl)cc2n1[O-],-,MIC,-,-,H37Rv,>6.25 µg/mL
NC(=O)c1ccncc1,-,MIC,resazurin,-,CF45,>25 µg/mL
O=C1/C(=C/c2ccccc2)CN(C(=O)c2ccc(/C=C/C(=O)c3ccc(Cl)cc3)cc2)C/C1=C\c1ccccc1,-,EC50,-,-,H37Rv,>6.25 µg/mL
Cc1c(C(=O)N2CCN(c3ccc([N+](=O)[O-])cc3)CC2)[n+](=O)c2cc(Cl)c(Cl)cc2n1[O-],6.25 µg/mL,inhibition,-,-,H37Rv,0%
C[C@]1(/C=C/Cl)C[C@](Cl)(CBr)[C@@H](Br)C[C@H]1Cl,-,MIC,-,-,H37Rv,32 µg/mL
c1csc(CCNCCNC2C3CC4CC(C3)CC2C4)c1,-,MIC,-,-,-,25 µM
CC(C)=CCc1cc(/C=C/C(=O)c2ccc(O)c(CC=C(C)C)c2O)ccc1O,-,MIC,resazurin,-,H37Rv,19.53 µg/mL
CC1=CC[C@H](Br)C(C)(C)[C@]12CC[C@](C)(Cl)[C@@H](Br)C2,-,MIC,-,-,H37Rv,128 µg/mL
CC(C)[C@H]1CO[C@]23CC[C@H](OCc4ccc(C(F)(F)F)cc4)C[C@H]2CCC(=O)N13,-,MIC,resazurin,-,-,<0.5 µM
[C-]#[N+][C@@]1(C)CC[C@H]2[C@H]3[C@H]4C(=CC[C@@H]31)CC(C)(C)C[C@@H]4C[C@@H]2C,-,MIC,-,-,H37Rv,8 µg/mL
CNC(=S)N(c1ccc(Cl)c(Cl)c1)C(C)c1cccs1,1000 µg/mL,zone,visual reading,-,-,15.4 mm
Oc1c(Cl)c2nc3ccccc3nc2c2ccccc12,-,MIC,-,-,H37Rv,0.4 µg/mL
Cc1cc(-c2cc3c(cc2F)c(=O)c(C(=O)O)cn3C2CC2)cc(C)n1,-,MIC,-,-,3105-5,1 µg/mL
Cc1nn(C(=O)c2c(-c3ccccc3)noc2C)c(C)c1N=Nc1cc(C(F)(F)F)cc(C(F)(F)F)c1,-,MIC bound,resazurin,-,H37Rv,>6.25 µg/mL
Cc1c(C(=O)NC(C)(C)C)[n+](=O)c2cc(Cl)ccc2n1[O-],6.25 µg/mL,inhibition,-,-,H37Rv,51%
CN1C(=O)c2ccccc2Cc2c(NCc3ccccc3)ncnc21,-,MIC bound,BACTEC,-,H37Rv,>12.5 µg/mL
CC(C)[C@H]1CO[C@]23CC[C@H](N(CCCCF)Cc4ccc(C(F)(F)F)cc4)C[C@H]2CCC(=O)N13,-,MIC,resazurin,-,-,0.5–5 µM
CN[C@@H]1[C@H](O[C@H]2[C@H](O[C@H]3[C@H](O)[C@@H](O)[C@H](N=C(N)N)[C@@H](O)[C@@H]3N=C(N)N)O[C@@H](C)[C@]2(O)C=O)O[C@@H](CO)[C@H](O)[C@H]1O,-,MIC,-,-,K139,≥512 µg/mL
Cc1cccc(C)c1NC(=O)CCC(=O)NNc1nnc(C)n1N,-,MIC bound,BACTEC,-,H37Rv,>12.5 µg/mL
COC(=O)CC[C@@H](C)[C@H]1CCC2C3C(C[C@H](O)[C@@]21C)[C@@]1(C)CC[C@H](n2cc(CNCCCNc4ccnc5cc(Cl)ccc45)nn2)C[C@H]1C[C@H]3O,-,MIC90,resazurin,-,H37Rv,17.3 µM
S=c1nc(-c2ccnc(-c3nc(=S)[nH][nH]3)c2)[nH][nH]1,-,MIC,BACTEC,-,H37Rv,≥12.5 µg/mL
CC(C)[C@H]1CO[C@]23CC[C@H](N(Cc4ccc(C(F)(F)F)cc4)C[C@@H]4CCCN4)C[C@H]2CCC(=O)N13,-,MIC,resazurin,-,-,0.5–5 µM
CNC(=S)N(Cc1ccco1)c1ccc(F)c(Cl)c1,-,MIC,visual reading,-,-,400 µg/mL
C=C(C)C1CC2(C)C(C)CC(O)CC2C(OC(=O)C=C(C)C)C1O,6.25 µg/mL,inhibition,resazurin,-,H37Rv,9%
CC(C)[C@H]1CO[C@]23CC[C@H](N(Cc4ccc(C(F)(F)F)cc4)CC4CCCCN4C(=O)OC(C)(C)C)C[C@H]2CCC(=O)N13,-,MIC,resazurin,-,-,<0.5 µM
CCCc1cc(=O)oc2c3c(c4c(c12)OC(C)(C)C=C4)O[C@@H](C)[C@H](C)[C@@H]3O,-,MIC,BACTEC,-,H37Rv,6.25 µg/mL
CC(C)(C)NC(=O)C1c2ccccc2CCN1c1cc2c(cc1[N+](=O)[O-])c(=O)c(C(=O)O)c1n2CS1,-,MIC,agar,-,H37Rv,3.07 µM
CC(C)[C@H]1CO[C@]23CC[C@H](N(Cc4ccc(C(F)(F)F)cn4)CC4CN(C(=O)OC(C)(C)C)C4)C[C@H]2CCC(=O)N13,-,MIC,resazurin,-,-,0.5–5 µM
OO,0.0005 µM,inhibition,-,-,H19,20%
COc1ccc(N2CCN(C(=O)c3c(C)n([O-])c4cc(Cl)c(Cl)cc4[n+]3=O)CC2)cc1,6.25 µg/mL,inhibition,-,-,H37Rv,0%
O=C(/C=C/C(=O)N1C/C(=C\c2ccccc2)C(=O)/C(=C/c2ccccc2)C1)Nc1ccc([N+](=O)[O-])cc1,-,EC50,-,-,H37Rv,<6.25 µg/mL
CNC(=S)N(Cc1ccco1)c1ccc(Cl)c(Cl)c1,1000 µg/mL,zone,visual reading,-,-,14.82 mm
O=C1/C(=C/c2ccccc2)CN(C(=O)c2ccc(/C=C/C(=O)c3ccc([N+](=O)[O-])cc3)cc2)C/C1=C\c1ccccc1,-,EC50,-,-,H37Rv,>6.25 µg/mL
Cc1cc(=O)n2c(n1)Nc1ccc(Cl)cc1C2,12.5 µg/mL,inhibition,BACTEC,-,H37Rv,-5%
CCCCCCNC[C@H]1O[C@H](O[C@H]2O[C@H](CNCCCCCC)[C@@H](O)[C@H](O)[C@H]2O)[C@H](O)[C@@H](O)[C@@H]1O,-,MIC,-,-,H37Ra,128 µg/mL
Cc1onc(-c2c(F)cccc2F)c1C(=O)N1CCN(c2cc3c(cc2[N+](=O)[O-])c(=O)c(C(=O)O)c2n3CS2)CC1,-,MIC,agar,-,H37Rv,5.36 µM
C=C1CC[C@@](C)(c2cc(Br)c(C)cc2O)[C@H]1C,-,MIC,-,-,H37Rv,16 µg/mL
CC(C)N(C(=S)Nc1ccccc1)c1ccc(F)c(Cl)c1,1000 µg/mL,zone,visual reading,-,-,10.06 mm
S=C(S)N1CCCC1,-,MIC,-,-,KM-R,0.4 µg/mL
CC1(C)C=Cc2c(ccc(C(=O)/C=C/c3ccc(O)cc3)c2O)O1,-,MIC,resazurin,-,MTCS2,9.76 µg/mL
CNC(=S)N(c1ccc(Cl)c(Cl)c1)C1CCCCC1,1000 µg/mL,zone,visual reading,-,-,12.07 mm
COC(=O)Nc1nc2ccc(-n3c(C)nc4ccccc4c3=O)cc2[nH]1,-,MIC bound,BACTEC,-,H37Rv,>6.25 µg/mL
Cc1c(C(=O)Nc2ccccc2)[n+](=O)c2ccccc2n1[O-],-,EC50,-,inside macrophages,H37Rv,<10.07 µg/mL
CC(C)(O)[C@H]1CC[C@]2(C)[C@H]3CC[C@@H]4[C@@]5(C)CCCC(C)(C)[C@@H]5[C@@H](O)C[C@@]4(C)[C@]3(C)CC[C@@H]12,-,MIC,-,-,H37Rv,8 µg/mL
Cc1ccc2[nH]c(=S)n(-c3ccc(Cl)cc3)c(=O)c2c1,12.5 µg/mL,inhibition,BACTEC,-,H37Rv,-5%
Cc1c(C(=O)N2CCN(c3ccc([N+](=O)[O-])cc3)CC2)[n+](=O)c2ccccc2n1[O-],6.25 µg/mL,inhibition,-,-,H37Rv,0%
Cn1cc(NC(=O)c2cc(NC(=O)c3cc(NC=O)cn3C)cn2C)cc1C(=O)NCCC(=N)N,-,MIC,BACTEC,-,H37Rv,6.4 µg/mL
CC(=O)O[C@@H]1C[C@@]2(C)[C@@H](CC[C@@H]3[C@@H]2[C@@H](O)C[C@]2(C)C4[C@H](C[C@@H]32)O[C@]2(C[C@H](C)C(C)(C)O2)[C@]4(C)O)C[C@@H]1O,-,MIC,-,-,H37Rv,<128 µg/mL
Cc1ccc(C(=O)/C=C/c2ccc(C(=O)N3C/C(=C\c4ccccc4)C(=O)/C(=C/c4ccccc4)C3)cc2)cc1,6.25 µg/mL,inhibition,-,-,H37Rv,0%
CC1(C)[C@H]2CC[C@@H](CNCCNCCN3CCOCC3)[C@@H]1C2,-,MIC,-,-,-,50 µM
O=C(O)c1c2n(c3cc(N4CCN(Cc5ccc6c(c5)OCO6)CC4)c([N+](=O)[O-])cc3c1=O)CS2,-,MIC,agar,-,H37Rv,0.79 µM
Cn1c(=O)cc2c3c(c(N)ccc31)C(=O)c1ccccc1-2,12.5 µg/mL,inhibition,BACTEC,-,H37Rv,92%
CCCCCC(N)=NC[C@H]1O[C@H](O[C@H]2O[C@H](CN=C(N)CCCCC)[C@@H](O)[C@H](O)[C@H]2O)[C@H](O)[C@@H](O)[C@@H]1O,-,MIC,-,-,H37Ra,>128 µg/mL
CC(C)[C@H]1CO[C@]23CC[C@H](N(Cc4ccc(C(F)(F)F)cc4)C(C)C4CN(C(=O)OC(C)(C)C)C4)C[C@H]2CCC(=O)N13,-,MIC,resazurin,-,-,0.5–5 µM
COCCCNC(=O)c1nnn2c1nc(N)c1cc(Cl)ccc12,12.5 µg/mL,inhibition,BACTEC,-,H37Rv,0%
CCCCC(CC)CN(CC(CC)CCCC)C[C@H]1O[C@H](O[C@H]2O[C@H](CN(CC(CC)CCCC)CC(CC)CCCC)[C@@H](O)[C@H](O)[C@H]2O)[C@H](O)[C@@H](O)[C@@H]1O,-,MIC,-,-,H37Ra,128 µg/mL
OC[C@H]1O[C@@H](n2c(N3CCOCC3)nc3ccccc32)[C@H](O)[C@@H]1O,6.25 µg/mL,inhibition,resazurin,-,H37Rv,-9%
Cc1c(C(=O)NC(C)(C)C)[n+](=O)c2ccccc2n1[O-],6.25 µg/mL,inhibition,-,-,H37Rv,10%

The first 7 rows once more:

| SMILES | dose | measure | read by | conditions | strain | result |
|---|---|---|---|---|---|---|
| COC(=O)C1C(=O)C2OC1C1OC(C)(C)OC21 | 12.5 µg/mL | inhibition | BACTEC | - | H37Rv | -13% |
| O=C(/C=C/C(=O)N1C/C(=C\c2ccccc2)C(=O)/C(=C/c2ccccc2)C1)Nc1ccccc1 | - | EC50 | - | - | H37Rv | >6.25 µg/mL |
| CC(NCCN[C@@H]1C[C@@H]2C[C@H]([C@H]1C)C2(C)C)c1cccc2ccccc12 | - | MIC | - | - | - | 50 µM |
| COc1cc2c(cc1OC)CN(c1cc3c(cc1F)c(=O)c(C(=O)O)c1n3CS1)CC2 | - | MIC | agar | - | H37Rv | 3.53 µM |
| S=C(Nc1ccccc1)N(Cc1ccco1)c1ccc(Cl)c(Cl)c1 | 1000 µg/mL | zone | visual reading | - | - | 18.88 mm |
| [C-]#[N+][C@@H]1[C@H](C(C)C)CC[C@@H](C)C12C=C(C)CC2 | - | MIC | - | - | H37Rv | 2 µg/mL |
| O=[N+]([O-])c1ccc(N=NNc2ccc([N+](=O)[O-])cc2Br)c(Br)c1 | - | EC90 | luminescence | - | H37Ra-lux | 4.95 µM |

Blank or dashed fields: not listed here. Percent inhibition refers to the dose given; in toxicity tests it is the harm to the cells. ECn: concentration that inhibits the pathogen or its effect by n%. MIC bound: limit read from a one-dose screen. A number after MIC or MFC names an inhibition level or a share of isolates. Two numbers with a dash give a range or band. Zone: diameter of growth inhibition.